Data reported in PubChem BioAssay AID485350 (ICCB-Longwood Screening Facility, Harvard Medical School, 2010).
Only a part is listed here, and it is no random draw. Calls of active or inactive are those of the source. Rule as the data show it: active = inhibition above about 25% (passing the limit was not always enough); inactive = the rest.

test system: BasE (2,3-dihydroxybenzoate-AMP ligase), Acinetobacter baumannii ATCC 17978; assay: BasE siderophore enzyme inhibitors, primary screen, biochemical, Acinetobacter baumannii ATCC 17978, fluorescence polarization (AID 485350); conditions: purified BasE, fluorescence polarization binding displacement; stronger effect = higher value; concentration not given here;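 also: 0% = negative plate control signal and 100% = positive plate control signal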

SMILES	inhibition
OCCSCCO	inactive: 1.13%
CCc1ccc(OP(C)(=O)Nc2cccnc2)cc1 (stereo not given)	active: 55.8%
CP(=O)(Nc1ccc(Cl)cc1)Oc1ccc(F)cc1 (stereo not given)	inactive: -0.77%
CN(C(=O)Cc1ccc(Cl)c(Cl)c1)[C@H]1CCCC[C@@H]1N1CCCC1	inactive: -2.11%
CCOP(=Nc1nc2ccccc2n2nnnc12)(OCC)OCC	inactive: 1.63%
O=C(COC(=O)C(O)(c1ccccc1)c1ccccc1)N1CCCCC1	inactive: 3.48%
CCOP(OCC)N1CCOCC1	inactive: -0.06%
CP(=O)(Nc1ccccn1)Oc1ccccc1 (stereo not given)	inactive: 0.2%
O=P1(Nc2nncs2)C=C(c2ccccc2)SC(c2ccccc2)=C1	inactive: -0.43%
Cc1cc(NC2=NC3C(C(=O)N(C)C(=O)N3C)N2C)n(-c2ccccc2)n1 (stereo not given)	inactive: 1.13%
O=C(OCCN1CCN(CCOCc2ccccc2)CC1)C(O)(c1ccccc1)c1ccccc1	inactive: -0.99%
O=C(OCC1CN(Cc2ccccc2)CCO1)C(O)(c1ccccc1)c1ccccc1 (stereo not given)	inactive: -0.73%
CC1CCC(C(C)C)C(OP(=O)(Nc2nccs2)c2ccccc2)C1 (stereo not given)	inactive: 0.55%
COC(=O)c1cc2c(s1)N=C(c1ccccc1)N(C)P2(=O)N1CCOCC1 (stereo not given)	inactive: -0.88%
COc1cc2c(cc1NP(C)(=O)Oc1ccccc1)oc1ccccc12 (stereo not given)	inactive: 0.95%
Nc1nonc1OCc1nonc1COc1nonc1N	inactive: 3.62%
C/C1=C2N=C(/C=C3N=C(/C(C)=C4\[N-][C@@](C)([C@@H]5N=C1[C@](C)(CCC(=O)NC[C@@H](C)OP(=O)([O-])O[C@H]1[C@@H](O)[C@@H](n6cnc7cc(C)c(C)cc76)O[C@@H]1CO)[C@H]5CC(N)=O)[C@@](C)(CC(N)=O)[C@@H]4CCC(N)=O)[C@@](C)(CC(N)=O)[C@@H]\3CCC(N)=O)C(C)(C)[C@@H]/2CCC(N)=O.[C-]#N.[Co+3]	inactive: -3.06%
O=P(Nc1nccs1)(c1ccccc1)c1ccccc1	inactive: -0.13%
Cc1ccccc1NP(C)(=O)Nc1ccccc1C	inactive: 1.13%
Nc1nonc1-c1no[n+]([O-])c1-c1nonc1N	inactive: -1.81%
CP(=O)(N1CCOCC1)N1CCOCC1	inactive: 2.17%
Cc1nn(CCC#N)c2c1P(=O)(Nc1ccccc1Cl)N(C)C(c1ccc(F)cc1)=N2 (stereo not given)	inactive: 2.27%
Cc1ccc(C(=O)OC2CN3CCC2CC3)cc1 (stereo not given)	inactive: -1.69%

SMILES	inhibition
Cc1nn(-c2ccccc2)c2c1P(=O)(N1CCOCC1)N(C)C(c1ccccc1)=N2 (stereo not given)	inactive: -2.81%
CCSP(=O)(c1ccccc1)c1ccccc1	inactive: 1.77%
Cc1cc(C)cc(OP(C)(=O)Nc2ccc(OC(C)C)cc2)c1 (stereo not given)	inactive: -2.13%
NC(=O)COC(=O)C1(O)c2ccccc2-c2ccccc21	inactive: 2.53%
CCOP1(=S)c2c(C)nn(CCC#N)c2N=C(c2ccc(F)cc2)N1C (stereo not given)	inactive: -0.93%
O=P1(Nc2nc3ccc(Cl)cc3s2)COc2ccccc2OC1	inactive: -0.4%
NC(=O)Nc1ccc([As](=O)(O)O)cc1	inactive: 0.58%
Cc1cccc(OCC(=O)OC2CN3CCC2CC3)c1 (stereo not given)	inactive: -0.57%
O=C(OC1CN2CCC1CC2)c1ccc(Cl)cc1 (stereo not given)	inactive: -0.77%
O=C(OC1CN2CCC1CC2)C12CC3CC(CC(C3)C1)C2 (stereo not given)	inactive: 0.25%
O=P1(Nc2nccs2)CC=CC1	inactive: -0.72%
CC1=Nc2ccc(C(F)(F)F)cc2C1(C)C	inactive: 5.37%
COP1(=S)N=C2c3ccccc3CN2c2cc(N(C)C)ccc21 (stereo not given)	inactive: -1.59%
Nc1nonc1OCCOc1nonc1N	inactive: 0.5%
Cc1cc(C)cc(OP(C)(=O)NCc2ccccc2)c1 (stereo not given)	inactive: 5.92%
CCN1C(=O)N(c2ccccc2)P(=S)(OC)c2cc3c(cc21)OCCO3 (stereo not given)	inactive: 1.48%
COc1ccccc1OP(C)(=O)Nc1ccccc1 (stereo not given)	inactive: 0.09%
CP(=O)(Nc1ccc(Cl)cc1)Oc1ccccc1 (stereo not given)	inactive: -2.78%
CP(=O)(NC(=O)Nc1ccccc1)Oc1ccccc1 (stereo not given)	inactive: 1.72%
COP1(=S)c2c(C)nn(-c3ccccc3)c2N=C(c2ccccc2)N1C1CC1 (stereo not given)	inactive: -1.55%
CCOC(=O)c1ccc(NP(C)(=O)Oc2ccc(OC)cc2)cc1 (stereo not given)	inactive: -2.04%
Cc1cccc(NP(C)(=O)Oc2ccccc2)c1 (stereo not given)	inactive: 2.42%
